This passage reports Recurrence results from patent US20250302929A1, “TUMOR NEOANTIGENIC PEPTIDES” (INSTITUT CURIE, priority 2021, published 2025).

For this series, the system named is CCLE cell lines. Nature of the series: MS-based total proteomics, lung tumor-specific JETs in CCLE cell lines (Nusinow et al. 2020). Details: species or system human. Particulars: peptide overlapping the splicing site.

The sequence SSGAQGEYAGLATIR registered a Recurrence of 9.
